Anti-infective test results gathered from many reports (values: NIAID ChemDB through PubChem).

Shared fields: toxicity to cultured cells; cells: HFF; read-out: CC50

Rows are shuffled and stem from different studies. CCn: concentration that lowers growth or viability of the cells by n%.

| compound | result |
|---|---|
| OC[C@H]1O[C@@H](n2cnc(Cl)c2Cl)[C@H](O)[C@@H]1O | >100 µM |
| Nc1nc(F)nc2c1ncn2/C=C1\CC1CO | >100 µM |
| O=C1c2cc(Br)ccc2-n2c1nc1ccccc1c2=O | >320 µg/mL |
| COC(=O)[C@H](C)NP(=O)(OC[C@H]1C/C1=C\n1cnc2c(=O)[nH]c(N)nc21)Oc1ccccc1 | >211 µM |
| Nc1nc(F)nc2c1ncn2/C=C1/CC1CO | 12.8 µM |
| OC[C@H]1O[C@@H](n2c(Br)nc(Br)c2Br)[C@H](O)[C@@H]1O | 100 µM |
| Nc1ccn([C@@H]2C[C@@H](O)[C@H](CO)O2)c(=O)n1 | >60 µM |
| C[CH2][Sn]([Br])([Br])[CH2]C.c1ccc(-c2nc3ccccc3[nH]2)nc1 | 14 µg/mL |
| OCCOCCN1CCN(C2=Nc3ccccc3Sc3ccccc32)CC1 | 33 µg/mL |
| OCCOCn1c(Br)nc(Br)c1Br | >100 µM |
| [CH3][Sn]([CH3])([Br])[Br].c1ccc(-c2nc3ccccc3[nH]2)nc1 | 83 µg/mL |
| OC[C@H]1O[C@@H](n2cnc(Br)c2Br)[C@H](O)[C@@H]1O | >100 µM |
| OCCN1CCN(CCCN2c3ccccc3Sc3ccc(C(F)(F)F)cc32)CC1 | 17.9 µg/mL |
| Cc1ccc2c(c1)C(=O)c1nc3ccccc3c(=O)n1-2 | >320 µg/mL |
| N=c1ccc(=Nc2ccc(N)c3c(O)c4ccccc4c(O)c23)c2c(=O)c3ccccc3c(=O)c1=2 | >1500 µM |
| CC[C@H]1OC(=O)[C@H](C)C(=O)[C@H](C)[C@@H](O[C@@H]2O[C@H](C)C[C@H](N(C)C)[C@H]2O)[C@](C)(OC)C[C@@H](C)C(=O)[C@H](C)[C@H]2N(NCCCc3ccnc4ccccc34)C(=O)O[C@]12C | >5 µg/mL |
| Cc1cc(Nc2ccc(O)c3c2C(=O)c2ccccc2C3=O)cc(S(=O)(=O)O)c1 | 930 µM |
| [Cl][Sn]([Cl])([c]1ccccc1)[c]1ccccc1 | 1.2 µg/mL |
| N#Cc1cn([C@@H]2O[C@H](CO)C[C@H]2O)c2ncnc(N)c12 | 3 µM |
| OC[C@H]1O[C@@H](n2c(Br)nc(Cl)c2Cl)[C@H](O)[C@H]1O | >100 µM |
| NC(=O)c1cn([C@@H]2O[C@H](CO)[C@@H](O)[C@@H]2O)c2ncnc(N)c12 | 10 µM |
| O=C1c2ccc(Br)cc2-n2c1nc1ccccc1c2=O | >320 µg/mL |
| Nc1nc(Cl)nc2c1ncn2/C=C1\CC1CO | >300 µM |
| O=C1c2ccc(Cl)cc2-n2c1nc1ccccc1c2=O | >320 µg/mL |
| CC(=O)Nc1ccc(Nc2cc(S(=O)(=O)O)c(N)c3c2C(=O)c2ccccc2C3=O)cc1 | 380 µM |
| N#Cc1cn([C@@H]2O[C@H](CO)[C@@H](O)[C@@H]2N)c2ncnc(N)c12 | >100 µM |
| C[C@H]1[C@@H](CCCC(=O)c2ccccc2Br)O[C@@H]2OC3(C)CC[C@H]4[C@H](C)CC[C@@H]1[C@@]24OO3 | >320 µg/mL |
| CCCC(CCC)C(=O)O | 52 µg/mL |
| N#Cc1cn([C@@H]2O[C@H](CO)[C@@H](O)[C@@H]2O)c2ncnc(N)c12 | 10 µM |
| Nc1ncnc2c1ncn2[C@@H]1C[C@@H](O)[C@H](CO)O1 | >100 µM |
| CN(C)CCCN1c2ccccc2Sc2ccc(Cl)cc21 | 6 µg/mL |
| OC[C@H]1O[C@@H](n2c(Br)nc3cc(Cl)c(Cl)cc32)[C@H](O)[C@@H]1O | 118 µM |
| NC(=S)c1cn([C@@H]2O[C@H](CO)C[C@H]2O)c2ncnc(N)c12 | 2.1 µM |
| C[C@H]1[C@@H](CCCC(=O)c2ccccc2)O[C@@H]2OC3(C)CC[C@H]4[C@H](C)CC[C@@H]1[C@@]24OO3 | >320 µg/mL |
| N#Cc1cn([C@@H]2O[C@H](CO)[C@@H](O)[C@@H]2O)c2ncnc(N)c12 | 0.3 µM |
| OC[C@H]1O[C@@H](n2c(Cl)nc(Cl)c2Cl)[C@H](O)[C@@H]1O | >100 µM |
| CCCC[CH2][Sn]([Cl])([Cl])[CH2]CCCC | <1 µg/mL |
| COC(=O)[C@H](C)NP(=O)(OC[C@H]1C/C1=C\n1cnc2c(N)nc(N)nc21)Oc1ccccc1 | >211 µM |
| NC(=S)c1cn([C@@H]2O[C@H](CO)[C@@H](O)[C@H]2O)c2ncnc(N)c12 | 0.32 µM |
| CC(C)=CCC[C@@H](C)CCCC[C@H]1O[C@@H]2OC3(C)CC[C@H]4[C@H](C)CC[C@@H]([C@H]1C)[C@@]24OO3 | 510 µg/mL |
| OC[C@H]1O[C@@H](n2c(Br)nc(Br)c2Br)[C@H](O)[C@H]1O | >100 µM |
| COC(=O)[C@H](C)NP(=O)(OCC1C/C1=C\n1cnc2c(N)ncnc21)Oc1ccccc1 | 141 µM |

Again, the opening 5 rows:

OC[C@H]1O[C@@H](n2cnc(Cl)c2Cl)[C@H](O)[C@@H]1O ; result: >100 µM
Nc1nc(F)nc2c1ncn2/C=C1\CC1CO ; result: >100 µM
O=C1c2cc(Br)ccc2-n2c1nc1ccccc1c2=O ; result: >320 µg/mL
COC(=O)[C@H](C)NP(=O)(OC[C@H]1C/C1=C\n1cnc2c(=O)[nH]c(N)nc21)Oc1ccccc1 ; result: >211 µM
Nc1nc(F)nc2c1ncn2/C=C1/CC1CO ; result: 12.8 µM